Our source for the inhibition values is PubChem BioAssay AID504690 (Sanford-Burnham Center for Chemical Genomics, 2011).

Each structure is given as a SMILES string. The entries are a selection whose mix differs from that of the whole data set. Activity calls are given as the source filed them.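 The calls were made as follows: active = inhibition reaching at least a set limit at 20 µM in the primary screen (cut at about 59% in these data); inactive = the rest.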

The test system of the test is glucose-6-phosphate dehydrogenase-6-phosphogluconolactonase (Plasmodium falciparum 3D7). Briefly: inhibition of malaria parasite G6PD (PfGluPho) – biochemical, fluorescence intensity, uHTS, primary screen (AID 504690).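 Also: 0% = DMSO wells with substrate and 100% = DMSO wells lacking glucose-6-phosphate.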 The note with it: PfGluPho enzyme, NADPH resazurin-diaphorase fluorescence; at 20 µM; stronger effect = higher value.
In the case of `Cc1c2c(nc3ccccc13)SC(C(Cl)Cl)C2` (stereo not given), the inhibition is inactive: -10.9%.

For the compound `O=C(OC1CN2CCC1CC2)C12CC3CC(CC(C3)C1)C2` (stereo not given), the inhibition was inactive: 5.48%. The result for `Cc1cc(=O)[nH]c(N[N+](=O)[O-])n1` reads inactive: -14.8%; that for `O=P1(N(CCCl)CCCl)Nc2ccccc2N1`, inactive: -7.99%. The result for `O=P1(N(CCCl)CCCl)OCCCN1CCCl` (stereo not given) reads inactive: -1.28%; that for `COc1ccc2nc(NP(=O)(c3ccccc3)c3ccccc3)sc2c1`, inactive: -12.7%. The result for `COc1cc(I)ccc1[As](=O)(O)O` reads inactive: 0.57%; that for `O=[N+]([O-])c1cc(Oc2ccc([N+](=O)[O-])cc2C(F)(F)F)cc([N+](=O)[O-])c1`, inactive: 11.7%; that for `COc1ccc(N/C(=N/P(=O)(N2CCOCC2)N2CCOCC2)N2CCOCC2)cc1`, inactive: -1.4%.

For the compound `O=[As](O)(c1ccc(O)cc1)c1ccccc1O`, the inhibition is inactive: -6.89%. For `C[As](=O)(O)c1cccc(C(=O)O)c1` the value was inactive: -6.17%; for `COc1cc(C(=O)NCC2(N3CCOCC3)CCCCC2)ccc1OCC(C)C`, inactive: -8.41%; for `O=[N+]([O-])c1ccc(-c2cc([N+](=O)[O-])c(O)c([N+](=O)[O-])c2)cc1`, inactive: 41.9%. For `Cc1ccc(OP(=O)(Nc2ccc([N+](=O)[O-])cn2)Oc2ccc(C)cc2)cc1` the value was inactive: -11.7%; for `Cc1ccc2nc3c(c(C)c2c1)CC(C(Cl)Cl)S3` (stereo not given), inactive: -10.5%. Take `ClCCSc1nnc(-c2cccnc2)o1`: the inhibition was inactive: 2.05%. For `CC(C)c1ccc(OP(=O)(Nc2ccccn2)Oc2ccccc2F)cc1` (stereo not given) the value was inactive: 15.5%; for `COC(=O)C1(C)COP(=O)(N2CCCCCC2)OC1` (stereo not given), inactive: -7.43%; for `O=C(OC1CN2CCC1CC2)c1cccc2[nH]cnc12` (stereo not given), inactive: -13.8%. The result for `CCN(CC)C(=S)SC(NC=O)C(Cl)(Cl)Cl` (stereo not given) reads inactive: 50.6%.

Take `CC(C)NC(=O)NP(=O)(Oc1ccccc1)Oc1ccccc1`: the inhibition was inactive: -19.8%.

In the case of `O=[N+]([O-])c1cc([N+](=O)[O-])c(-c2ccn[nH]2)s1`, the inhibition was inactive: 38.5%.

With `CCOC(=O)Nc1ccc([As](=O)(O)O)c(O)c1`, the inhibition was inactive: -30.4%. Regarding `O=C(O)C(O)c1ccc(N(CCCl)CCCl)cc1` (stereo not given), the inhibition was inactive: 0.56%.

For the compound `CC1CCNP(=O)(N(CCCl)CCCl)O1` (stereo not given), the inhibition is inactive: -1.11%. For `COP(=O)(OC)N1CC1c1ccccc1` (stereo not given) the value was inactive: -2.83%; for `CCCCOc1ccc(C(=O)NCC2(N3CCCCC3)CCCCC2)cc1OC`, inactive: -1.73%; for `Cc1cc(SC(NC(=O)c2ccccc2)C(Cl)(Cl)Cl)nc(C(C)C)n1` (stereo not given), inactive: 43.5%.

Turning to `CCOC(=O)Nc1cccc([As](=O)(O)O)c1`, the inhibition was inactive: -2.92%. For `O=P(Nc1ccccn1)(c1cccc2ccccc12)c1cccc2ccccc12` the value was inactive: -2.07%. For `Cc1cc(SC(NC=O)C(Cl)(Cl)Cl)ncn1` (stereo not given) the value was inactive: 20.1%. The result for `O=[N+]([O-])c1ccc(Nc2ccc(Oc3ccc([N+](=O)[O-])cc3[N+](=O)[O-])cc2)c([N+](=O)[O-])c1` reads inactive: 11.6%; that for `COP1(=S)c2c(C)nn(CCC#N)c2N=C(c2ccc(F)cc2)N1C` (stereo not given), inactive: 1.09%. Regarding `O=C(O)C(=O)c1ccc(N(CCCl)CCCl)cc1`, the inhibition was inactive: 2.52%.

Turning to `O=C(Nc1ccncc1[N+](=O)[O-])c1ccc([N+](=O)[O-])cc1[N+](=O)[O-]`, the inhibition is inactive: 0.42%. As for `O=C(OC1CN2CCC1CC2)c1cccc([N+](=O)[O-])c1` (stereo not given), the inhibition was inactive: 6.11%.

Take `CSc1ccc(Nc2c([N+](=O)[O-])cc([N+](=O)[O-])cc2[N+](=O)[O-])cc1`: the inhibition is inactive: 3.71%. Turning to `CCOC(=O)c1ccc(NC(=O)C(C)(CCl)SC)cc1` (stereo not given), the inhibition is inactive: -3.59%.

Turning to `CCC(C)N(CC(C)C)C(=S)SC(NC(C)=O)C(Cl)(Cl)Cl` (stereo not given), the inhibition was inactive: 12%.

With `O=P1(Nc2ccccn2)COc2ccccc2OC1`, the inhibition is inactive: -19.3%. For `CCC1=CC2Cc3nc4ccc(Cl)cc4c(N)c3C(C1)C2` (stereo not given) the value was inactive: 14.6%; for `CCOP(=O)(NC(=NC(C)c1ccccc1)NC(C)c1ccccc1)OCC` (stereo not given), inactive: -2.43%. For `CN(CCCl)Cc1cc(Cl)c(NC2=NCCN2)c(Cl)c1` the value was inactive: 6.71%; for `CCOP(=O)(Nc1ccc(C)cn1)OCC`, inactive: -6.77%.

On to `O=P1(N(CCCl)CCCl)NCCC(C(F)(F)F)O1` (stereo not given), for which the inhibition is inactive: 0.58%. Regarding `Clc1n[nH]nc1-c1nn[nH][15n]1`, the inhibition is inactive: -5.59%.

As for `CC(C)(C)C(=O)NC(Sc1ncccn1)C(Cl)(Cl)Cl` (stereo not given), the inhibition is inactive: 0.39%. The result for `COc1ccccc1CNC(=O)COC(=O)C(O)(c1ccccc1)c1ccccc1` reads inactive: 7.76%; that for `CC(C)/C=N\N=C(\N)N[N+](=O)[O-]`, inactive: -17.5%; that for `CN(C(=O)Cc1ccc(Cl)c(Cl)c1)[C@@H]1CCCC[C@H]1N1CCCC1`, inactive: -9.01%. For `CC1(CBr)Cn2c(nc3ccccc3c2=O)S1` (stereo not given) the value was inactive: -9.6%. For `Cc1nn(-c2ccccc2)c2c1P(=O)(N1CCOCC1)N(C)C(c1ccccc1)=N2` (stereo not given) the value was inactive: -3.89%; for `CC1CCC(C(C)C)C(OP(=O)(Nc2ccccn2)c2ccccc2)C1` (stereo not given), inactive: 0.53%. Consider `Cc1ccc(C(=O)OC2CN3CCC2CC3)cc1` (stereo not given), for which the inhibition is inactive: -7.78%. The result for `CN(C)C1(CNC(=O)c2ccc(S(C)(=O)=O)cc2)CCCCC1` reads inactive: -0.05%. For `O=C(/C=C/c1ccccc1)OC1CN2CCC1CC2` (stereo not given) the value was inactive: -4.2%; for `CCCC1OP(=O)(Nc2ccccc2)OCC1CC` (stereo not given), inactive: -5.07%; for `O=P1(Nc2ncccn2)COc2ccccc2OC1`, inactive: -9.93%.

Regarding `Nc1cccc([As](=O)(O)c2ccccc2)c1`, the inhibition was inactive: -30.2%. The result for `O=P1(Nc2ccc(Br)cn2)COc2ccccc2OC1` reads inactive: -7.12%; that for `NS(=O)(=O)c1cccc(NC(=O)COC(=O)C(O)(c2ccccc2)c2ccccc2)c1`, inactive: -10.1%. The result for `O=[As](O)(c1cccs1)c1cccs1` reads inactive: -13.9%; that for `Cc1ccc(OCC(=O)OC2CN3CCC2CC3)cc1` (stereo not given), inactive: -15.3%; that for `CCOP1(=S)c2c(C)nn(CCC#N)c2N=C(c2ccccc2F)N1C` (stereo not given), inactive: -1.76%. Take `O=P(Nc1nccs1)(c1ccccc1)c1nc2ccccc2s1` (stereo not given): the inhibition was active: 80.2%.
